Reference: patent publication US20240122867A1, “CORONAL PROTEIN-COATED NANOPARTICLES AND USES THEREOF” (UNIVERSITY OF CENTRAL FLORIDA RESEARCH FOUNDATION, INC., priority 2021, published 2024)

B1: Peroxiredoxin-2 (protein, UniProt Q61171 2-198, looked up)
Peroxiredoxin-2: ASGNAQIGKSAPDFTATAVVDGAFKEIKLSDYRGKYVVLFFYPLDFTFVCPTEIIAFSDHAEDFRKLGCEVLGVSVDSQFTHLAWINTPRKEGGLGPLNIPLLADVTKSLSQNYGVLKNDEGIAYRGLFIIDAKGVLRQITVNDLPVGRSVDEALRLVQAFQYTDEHGEVCPAGWKPGSDTIKPNVDDSKEYFSKHN
B2: Lumican (protein, UniProt P51885 19-338, looked up)
Lumican: QYYDYDIPLFMYGQISPNCAPECNCPHSYPTAMYCDDLKLKSVPMVPPGIKYLYLRNNQIDHIDEKAFENVTDLQWLILDHNLLENSKIKGKVFSKLKQLKKLHINYNNLTESVGPLPKSLQDLQLTNNKISKLGSFDGLVNLTFIYLQHNQLKEDAVSASLKGLKSLEYLDLSFNQMSKLPAGLPTSLLTLYLDNNKISNIPDEYFKRFTGLQYLRLSHNELADSGVPGNSFNISSLLELDLSYNKLKSIPTVNENLENYYLEVNELEKFDVKSFCKILGPLSYSKIKHLRLDGNPLTQSSLPPDMYECLRVANEITVN
B3: Coagulation factor IX (protein, UniProt P16294 47-471, looked up)
Coagulation factor IX: YNSGKLEEFVRGNLERECIEERCSFEEAREVFENTEKTTEFWKQYVDGDQCESNPCLNGGICKDDISSYECWCQVGFEGRNCELDATCNIKNGRCKQFCKNSPDNKVICSCTEGYQLAEDQKSCEPTVPFPCGRASISYSSKKITRAETVFSNMDYENSTEAVFIQDDITDGAILNNVTESSESLNDFTRVVGGENAKPGQIPWQVILNGEIEAFCGGAIINEKWIVTAAHCLKPGDKIEVVAGEYNIDKKEDTEQRRNVIRTIPHHQYNATINKYSHDIALLELDKPLILNSYVTPICVANREYTNIFLKFGSGYVSGWGKVFNKGRQASILQYLRVPLVDRATCLRSTTFTIYNNMFCAGYREGGKDSCEGDSGGPHVTEVEGTSFLTGIISWGEECAMKGKYGIYTKVSRYVNWIKEKTKLT
B4: C-reactive protein (protein, UniProt P14847 20-225, looked up)
C-reactive protein: HEDMFKKAFVFPKESDTSYVSLEAESKKPLNTFTVCLHFYTALSTVRSFSVFSYATKKNSNDILIFWNKDKQYTFGVGGAEVRFMVSEIPEAPTHICASWESATGIVEFWIDGKPKVRKSLHKGYTVGPDASIILGQEQDSYGGDFDAKQSLVGDIGDVNMWDFVLSPEQISTVYVGGTLSPNVLNWRALNYKAQGDVFIKPQLWS
B5: 55 kDa erythrocyte membrane protein (protein, UniProt P70290 2-466, looked up)
55 kDa erythrocyte membrane …: TLKSSEGEGGNSMRTALSDLYLEHLLQKRNRPETSLNQSNVTTEDMYTNGSPAPGSPAHAKGQEARRVRLIQFEKITEEPMGITLKLNEKQSCTVARILHGGMIHRQGSLHVGDEILEINGTNVTNHSVDQLQKAMKETKGMISLKVIANQQSRLPALQMFMRAQFDYDPQKDNLIPCKEAGLKFVTGDIIQIINKDDSNWWQGRVEGSSKESAGLIPSPELQEWRVASVAHSAPSEAPSCSPFGKKKKCKDKYLAKHSSIFDQLDVVSYEEVVRLPAFKRKTLVLIGASGVGRSHIKNGLLSHNPEKFAYPAPYTTRPPKKSEEDGKEYHFISTEEMTKNISANEFLEFGSYQGNMFGTKFETVHQIHKQDKIAILDIEPQTLKTVRTAELSPFIVFIAPTDQGTQTEALQQLQKDSEAIRSQYAHYFDLSLVNNSVDETLKKLQEAFDQACSSPQWVPVSWVY

System: coronal proteins on NPs
Set-up: species or system mouse
Conditions: for V5 Sera_Nanoparticles Quantitative Value (Normalized Total Spectra): HBPE-NPs incubated 1 h with IAV day 5 (V5) mouse sera, 20:1 NP:sera, centrifuged and washed; for V5 Sera Alone (Control) Quantitative Value (Normalized Total Spectra): IAV day 5 (V5) mouse sera alone, no NPs (sera-only control)

| Molecule | V5 Sera_Nanoparticles Quantitative Value (Normalized Total Spectra) | V5 Sera Alone (Control) Quantitative Value (Normalized Total Spectra) |
| --- | --- | --- |
| B1 | 2.1758 | 0.9252 |
| B2 | 2.1758 | 0.9252 |
| B3 | 2.1758 | 0 |
| B4 | 2.1758 | 1.8505 |
| B5 | 2.1758 | 0 |
